Anti-infective test results gathered from many reports (values: NIAID ChemDB through PubChem).

Common to all: whole-cell or culture tests; organism: HIV-1; endpoint: EC50

Rows are shuffled and stem from different studies. ECn is the concentration giving n% inhibition of infection, replication or growth. Blank or dashed fields: not listed here.

SMILES	strain or isolate	changes	cell line	method	value
Cc1cc(O)cc(S(=O)(=O)c2cccc(N)c2C#N)c1	-	RT-K103N Y181C	HeLa + HELA CD4+	β-galactosidase	>50 µM
CCC(CC)[N+](C)(C)Cc1ccc(NC(=O)C2=Cc3cc(-c4ccc(C)cc4)ccc3OCC2)cc1	JR-FL	-	MAGI + MAGI-CCR5	β-galactosidase	0.0051 µM
Cc1occc1C(=S)Nc1ccc(Cl)c(/C=N/OC(C)(C)C)c1	UC82-R (RT-Y181C)	RT-Y181C	CEM + CEM-SS	cytopathic effect / XTT	1.1 µM
O=C1N(Cc2ccc(CO)cc2)[C@H](COc2ccccc2)[C@H](O)[C@@H](O)[C@@H](COc2ccccc2)N1Cc1ccc(CO)cc1	IIIB	PR-V82A	MT-4	cytopathic effect / XTT	0.1 µM
Cc1cn([C@@H]2O[C@H](CO[Si](C)(C)C(C)(C)C)[C@@]3(OS(=O)(=O)C=C3N)[C@H]2O[Si](C)(C)C(C)(C)C)c(=O)[nH]c1=O	UC781-R (RT-Y181C)	RT-Y181C	CEM + CEM-SS	cytopathic effect / XTT	>10 µM
Cc1cn([C@H]2C[C@H](N=[N+]=[N-])[C@@H](CO)O2)c(=O)[nH]c1=O	CONB/pNL43E-Luc+	-	U87 (CD4+ CCR5+) + U87	luciferase	<0.2 µg/mL
Cc1cc(C#Cc2cccc(N)c2)cc(C)c1Oc1ccnc(Nc2ccc(C#N)cc2)n1	IIIB	F227L + V106A	MT-4	MTT	0.594 µM
CC(C)=CCN1Cc2cc(Cl)cc3[nH]c(=S)n(c23)C[C@@H]1C	RF	-	CEM + CEM-SS	cytopathic effect / MTT	0.043 µM
Cc1ccnc2c1NC(=O)c1cccnc1N2C1CC1	NL4-3 (RT K101E)	RT-K101E	CEM + CEM-SS	cytopathic effect / XTT	0.3 µM
COC(=O)[C@H](C)NP(=O)(OC[C@@H]1C=C[C@H](n2cc(C)c(=O)[nH]c2=O)O1)Oc1ccc(Br)cc1	C140 NRTI resistant	RT-M42L M184V T215Y	PBMC	p24	0.0025 µM
Cc1cn([C@@H]2O[C@H](CO[Si](C)(C)C(C)(C)C)C3(OS(=O)(=O)C=C3N)[C@H]2O[Si](C)(C)C(C)(C)C)c(=O)n(C)c1=O	-	-	MM + M/M	-	0.08 µg/mL
C/C=C/CSc1cc(NC(=S)c2ccsc2C)ccc1Cl	Calanolide A-resistant (RT T139I)	RT-T139I	CEM + CEM-SS	cytopathic effect / XTT	0.4 µM
C[C@H](Cn1cnc2c(N)ncnc21)OCP(=O)(O)O	-	-	MM + M/M	-	0.04 µM
COCc1c(CNCC(C)C)cc2cc(OC)c(OC)cc2c1-c1ccc(OC)c(OC)c1	CONB/pNL43E-Luc+	-	U87 (CD4+ CCR5+) + U87	luciferase	0.32 µg/mL
COc1cc(C(F)(F)F)cc(S(=O)(=O)c2cccc(N)c2C#N)c1	-	RT-V106A	HeLa + HELA CD4+	β-galactosidase	0.0029 µM
Cc1cn([C@H]2C[C@H](N=[N+]=[N-])[C@@H](CO)O2)c(=O)[nH]c1=O	G3 R5 subtype G/- (env/gag)	RT-V35T E40D K173T R211K L214F	PBMC	p24	0.006 µM
Cc1ccc(-c2ccc3c(c2)C=C(C(=O)Nc2ccc(CC[N+]4(C)CCCCC4)cc2)CCO3)cc1	JR-FL	-	MAGI + MAGI-CCR5	β-galactosidase	0.056 µM
Cc1cc(C#Cc2ccccc2N)cc(C)c1Oc1ccnc(Nc2ccc(C#N)cc2)n1	IIIB	K103N	MT-4	MTT	0.537 µM
CC(C)Nc1cccnc1N1CCN(C(=O)c2cc3cc(NS(C)(=O)=O)ccc3[nH]2)CC1	IIIB	-	HT4lacZ-1/IIIB + HT4 LacZ-1	syncytia	0.014 µM
CC[C@H](C)[C@H](NC(=O)[C@H](C(C)C)[C@@H](O)[C@H](O)[C@H](CC1CCCCC1)NC(=O)[C@H](Cc1cnc[nH]1)NC(=O)COc1cccc2ccccc12)C(=O)NCc1ccccn1	-	-	Primary lymphocytes + Lymphocytes	-	0.2 µM
Cc1ccc(-c2ccc3c(c2)C=C(C(=O)Nc2ccc(C[N+]4(C)CCCCC4)cc2)CC3)cc1	JR-FL	-	MAGI + MAGI-CCR5	β-galactosidase	0.28 µM
Cc1cc(C#Cc2ccc(N)cc2)cc(C)c1Oc1ccnc(Nc2ccc(C#N)cc2)n1	IIIB	K103N	MT-4	MTT	0.045 µM
C[N+](C)(Cc1ccc(NC(=O)C2=Cc3cc(-c4ccc(N5CCCC5)cc4)ccc3CCC2)cc1)C1CCOCC1	JR-FL	-	MAGI + MAGI-CCR5	β-galactosidase	0.0011 µM
Cc1cccc(C)c1Oc1ccnc(Nc2ccc(C#N)cc2)n1	IIIB	E138K	MT-4	MTT	0.046 µM
Cc1cc(Br)cc(S(=O)(=O)c2cccc(N)c2C#N)c1	-	RT-V108I Y181C	HeLa + HELA CD4+	β-galactosidase	13 µM
CCOc1ccc(-c2ccc3c(c2)C=C(C(=O)Nc2ccc(C[N+](C)(C)C4CCOCC4)cc2)CCO3)cc1	JR-FL	-	MAGI + MAGI-CCR5	β-galactosidase	0.0018 µM
Cc1cn([C@H]2C[C@H](N=[N+]=[N-])[C@@H](CO)O2)c(=O)[nH]c1=O	HX	-	HT4LACZ-1 + HT4 LacZ-1	-	0.024 µM
Cc1cc(C#Cc2ccc(C(F)(F)F)cc2)cc(C)c1Oc1ccnc(Nc2ccc(C#N)cc2)n1	IIIB	Y181C	MT-4	MTT	>7.353 µM
CC(=O)N1CCC(C(=O)N(CCCN2CCC(Cc3ccc(C(N)=O)cc3)CC2)c2ccc(C)c(Cl)c2)CC1	R5X4 subtype B_2 recombinant	-	U87 (CD4+ CCR5+) + U87	luciferase	0.0063 µM
O=C(O)P(=O)(O)O	HX	-	HT4LACZ-1 + HT4 LacZ-1	-	41 µM
CC(C)(C)NC(=O)[C@@H]1CN(Cc2cccnc2)CCN1C[C@@H](O)C[C@@H](Cc1ccccc1)C(=O)N[C@H]1c2ccccc2C[C@H]1O	4755-5 NRTI resistant recombinant	RT-M41L E44D D67N T69D Y118I M184V L210W T215Y	PBMC	RT activity	0.0048 µM
Cc1cc(Cl)cc(S(=O)(=O)c2cccc(N)c2C#N)c1	-	RT-K103N	HeLa + HELA CD4+	β-galactosidase	0.97 µM
Cc1cc(C#Cc2cccc(N)c2)cc(C)c1Oc1ccnc(NC2CCN(Cc3ccc(S(N)(=O)=O)cc3)CC2)n1	IIIB	RES056	MT-4	MTT	>0.732 µM
O=c1[nH]cnc2c1ncn2[C@H]1CC[C@@H](CO)O1	-	-	Primary lymphocytes + Lymphocytes	-	0.5 µM

Repeating the final 4 entries:

SMILES	strain or isolate	changes	cell line	method	value
CC(C)(C)NC(=O)[C@@H]1CN(Cc2cccnc2)CCN1C[C@@H](O)C[C@@H](Cc1ccccc1)C(=O)N[C@H]1c2ccccc2C[C@H]1O	4755-5 NRTI resistant recombinant	RT-M41L E44D D67N T69D Y118I M184V L210W T215Y	PBMC	RT activity	0.0048 µM
Cc1cc(Cl)cc(S(=O)(=O)c2cccc(N)c2C#N)c1	-	RT-K103N	HeLa + HELA CD4+	β-galactosidase	0.97 µM
Cc1cc(C#Cc2cccc(N)c2)cc(C)c1Oc1ccnc(NC2CCN(Cc3ccc(S(N)(=O)=O)cc3)CC2)n1	IIIB	RES056	MT-4	MTT	>0.732 µM
O=c1[nH]cnc2c1ncn2[C@H]1CC[C@@H](CO)O1	-	-	Primary lymphocytes + Lymphocytes	-	0.5 µM